Pooled drug test results. Numbers come from NIAID ChemDB, via PubChem.

Common to all: tests in culture; organism: Mycobacterium tuberculosis

Inhibition is in % at the dose shown (toxicity tests: loss of growth or viability).

structure,strain,mutations,endpoint,cell line,read by,tested at,value
Nc1ccc(S(=O)(=O)O)cc1,H37Rv,,MIC,,,,>100 µg/mL
COc1cc2oc3cc(O)c(CCC(C)C)c(O)c3c(=O)c2c(CCC(C)C)c1OC,M8,,MIC,,resazurin,,0.78 µg/mL
CCOC(=O)C(NC(=O)c1ccccc1)(N1CCN(c2cc3c(cc2F)c(=O)c(C(=O)O)cn3C2CC2)CC1)C(F)(F)F,H37Rv,,MIC,VERO,,,0.78 µg/mL
CO/C(C)=C1/NC(=O)[C@H]([C@@H](C)O)NC(=O)c2csc(n2)-c2cc(O)c(-c3nc(C(=O)NCCCN4CCOCC4)cs3)nc2-c2csc(n2)[C@@H]2COC(=O)c3c4c5c(cccc5n3O)COC(=O)[C@@H](O[C@H]3C[C@](C)(O)[C@H](N(C)C)[C@H](C)O3)[C@@H](OC4)[C@H](NC(=O)c3csc1n3)c1nc(cs1)C(=O)N2,Clinical isolate 15552,Rifampicin- and isoniazid-resistant,MIC,,broth dilution,,≤2.5 µM
Cc1cc(C)c(NC(=O)c2cnccn2)c(=O)o1,H37Rv,,inhibition,,BACTEC,6.25 µg/mL,33%
Cc1ccn2c(C(=O)NCc3ccc(N4CCN(c5ccc(C(F)(F)F)cn5)CC4)c(F)c3)c(C)nc2c1,H37Rv,,MIC90,,resazurin,,<2 µM
C[C@H]1COc2c(N3CCN(C)CC3)c(F)cc3c(=O)c(C(=O)O)cn1c23,44 isolates (resistant),,Mean MIC,,,,0.741 µg/mL
CCN(CC)CCNc1ccc(OC)cc1,H37Rv,,MIC,,,,50 µg/mL
NNC(=O)c1ccncc1,M-3,MDR,MIC,,resazurin,,>2 µg/mL
CC(=O)Nc1ccc(S(=O)[O-])cc1.[Na+],H37Rv,,MIC,,,,100 µg/mL
NC(=O)c1cnc(Cl)cn1,ATCC 35828,,MIC,,,,32 µg/mL
C[C@@H]1CN(c2c(F)c(N)c3c(=O)c(C(=O)O)cn(C4CC4)c3c2F)C[C@H](C)N1,90-0240 (drug-susceptible),,MIC,,,,0.1 µg/mL
Nc1c(Cl)ncnc1NC1CC1CO,H37Rv,,MIC bound,,resazurin,,>6.25 µg/mL
C=C(NC(=O)c1csc(-c2nc3c(cc2O)-c2nc(cs2)C(=O)N[C@@H]([C@@H](C)O)C(=O)N/C(=C(\C)OC)c2nc(cs2)C(=O)N[C@@H]2c4nc(cs4)C(=O)N[C@@H](COC(=O)c4c5c6c(cccc6n4O)COC(=O)[C@@H](O[C@H]4C[C@](C)(O)[C@H](N(C)C)[C@H](C)O4)[C@H]2OC5)c2nc-3cs2)n1)C(N)=O,Clinical isolate 565,Multidrug-resistant,MIC,,broth dilution,,2.5–25 µM
COC1=CC(=O)C=C(CO)C1=O,H37Rv,,MIC bound,,BACTEC,,>12.5 µg/mL
O=[N+]([O-])c1ccc(-c2cccc(-c3ccc([N+](=O)[O-])cc3)n2)cc1,H37Rv,,MIC,,,,>100 µg/mL
Cc1ccc2nc(C)c(C(=O)NCc3ccc(S(F)(F)(F)(F)F)cc3)n2c1,H37Rv,,MIC90,,resazurin,,<2 µM
O[C@H](c1cc(C(F)(F)F)nc2c(C(F)(F)F)cccc12)[C@H]1CCCCN1,H37Rv,,inhibition,,resazurin,6.25 µg/mL,81%
CC1=CC(=C(c2ccc(N)cc2)c2ccc(N)cc2)C=CC1=N,H37Rv,,MIC,,,,100 µg/mL
CO[C@H]1/C=C/O[C@@]2(C)Oc3c(C)c(O)c4c(O)c(c(/C=N/N5CCN(C)CC5)c(O)c4c3C2=O)NC(=O)/C(C)=C\C=C\[C@H](C)[C@H](O)[C@@H](C)[C@@H](O)[C@@H](C)[C@H](OC(C)=O)[C@@H]1C,H37Rv,,MIC,,,,2.5 µg/mL
CC(C)C(=O)N1c2ccccc2OC(=O)C1CC(=O)Nc1ccccc1,18b,,MIC,,resazurin,,8 µg/mL
Nc1ccc(C(=O)O)c2ccccc12,H37Rv,,MIC,,,,>6.25 µg/mL
CO[C@H]1/C=C/O[C@@]2(C)Oc3c(C)c(O)c4c(O)c(c(/C=N/N5CCN(C)CC5)c(O)c4c3C2=O)NC(=O)/C(C)=C\C=C\[C@H](C)[C@H](O)[C@@H](C)[C@@H](O)[C@@H](C)[C@H](OC(C)=O)[C@@H]1C,Clinical isolate 9139,Isoniazid-resistant,MIC,,broth dilution,,≤0.1 µM
CO[C@H]1/C=C/O[C@@]2(C)Oc3c(C)c(O)c4c(O)c(c(/C=N/N5CCN(C)CC5)c(O)c4c3C2=O)NC(=O)/C(C)=C\C=C\[C@H](C)[C@H](O)[C@@H](C)[C@@H](O)[C@@H](C)[C@H](OC(C)=O)[C@@H]1C,M5,MDR,MIC,,resazurin,,>2 µg/mL
Cc1ccn2c(C(=O)NCc3ccc(N4CCC(Oc5cccc(C(F)(F)F)c5)CC4)c(F)c3)c(C)nc2c1,H37Rv,,MIC90,,resazurin,,<2 µM
CO/C(C)=C1/NC(=O)[C@H]([C@@H](C)O)NC(=O)c2csc(n2)-c2cc(OC)c(-c3nc(C(=O)NCCCN4CCOCC4)cs3)nc2-c2csc(n2)[C@@H]2COC(=O)c3c4c5c(cccc5n3O)COC(=O)[C@@H](O[C@H]3C[C@](C)(O)[C@H](N(C)C)[C@H](C)O3)[C@@H](OC4)[C@H](NC(=O)c3csc1n3)c1nc(cs1)C(=O)N2,Clinical Isolate 913,,MIC,,broth dilution,,≤1 µM
CN(C)CCCNc1ccc2ncn3c4ccccc4c(=O)c1c23,H37Rv,,MIC,VERO,BACTEC,,12.5 µg/mL
COc1ccc(-c2cc(C(=O)O)c3c(O)cc4c(S(=O)(=O)[O-])cccc4c3n2)cc1.[Na+],H37Rv,,MIC,,,,>100 µg/mL
CCOC(=O)C1=C(c2ccccc2)C2OC1C(COC(=O)NC)=C2COC(=O)NC,H37Rv,,MIC bound,,resazurin,,>6.25 µg/mL
CCc1nc2ccc(Cl)cn2c1C(=O)NCc1ccc(N2CCS(=O)(=O)CC2)cc1,H37Rv,,MIC90,,resazurin,,2–10 µM
CN(C)c1ccc(Cc2ccc(N(C)C)cc2)cc1,H37Rv,,MIC,,,,50 µg/mL
COc1cc(/C=N/NC(=O)C(N)Cc2ccc(O)cc2)ccc1O,H37Rv,,inhibition,,BACTEC,12.5 µg/mL,35%
CCn1c(C)c(C(=O)NCCOC)sc1=S,Clinical isolate,,MIC,,resazurin,,16 µg/mL
O=C1CN(Cc2ccc(Cl)cc2)CC(=O)N2CCCN12,H37Rv,,inhibition,,BACTEC,12.5 µg/mL,26%
CC[C@H]1OC(=O)[C@H](C)[C@@H](O[C@H]2C[C@@](C)(OC)[C@@H](O)[C@H](C)O2)[C@H](C)[C@@H](O[C@@H]2O[C@H](C)C[C@H](N(C)C)[C@H]2O)[C@](C)(OC)C[C@@H](C)C(=O)[C@H](C)[C@@H](O)[C@]1(C)O,92-0492 MDR (INH RIF-resistant),,MIC,,,,10 µg/mL
[O-][N+](=Nc1ccccc1)c1ccccc1,H37Rv,,MIC,,,,25 µg/mL
NC[C@@H]1O[C@H](O[C@H]2[C@@H](O)[C@H](O[C@@H]3[C@@H](O)[C@H](N)C[C@H](N)[C@H]3O[C@H]3O[C@H](CO)[C@@H](O)C[C@H]3N)O[C@@H]2CO)[C@H](N)[C@@H](O)[C@@H]1O[C@H]1O[C@H](CO)[C@@H](O)[C@H](O)[C@@H]1O,Aoyama B (kanamycin-resistant),,EC50,,,,≥50 µg/mL
CCCCCCCCN1C(=O)CCC1=O,H37Rv,,MIC,,,,50 µg/mL
COc1c(O)cc2oc3cc(O)c(CCC(C)C)c(O)c3c(=O)c2c1CCC(C)C,M21,MDR,MIC,,resazurin,,3.12 µg/mL
CCN(Cc1ccc(CN(CC)C(=O)c2c(-c3ccccc3)noc2C)cc1)C(=O)c1c(-c2ccccc2)noc1C,H37Rv,,inhibition,,resazurin,6.25 µg/mL,18%
CCc1cc(C(N)=S)ccn1,90-0241 (drug-susceptible),,MIC,,,,0.5 µg/mL
Nc1ccc(N=Nc2ccc(S(=O)(=O)O)cc2)cc1,H37Rv,,MIC,,,,100 µg/mL
Cc1occc1-c1nnc(SCC(=O)N(C)c2ccc(F)cc2)o1,Clinical isolate,,MIC,,resazurin,,16 µg/mL
Cn1c(=O)nc2n(-c3ccc(O)cc3)c3ccccc3nc-2c1=O,H37Rv,,inhibition,,BACTEC,12.5 µg/mL,17%
O=C(Nc1ccc(S(=O)(=O)O)c2cccc(O)c12)c1ccccc1,H37Rv,,MIC,,,,>100 µg/mL
CN1N=CSC12C(=O)N(c1ccc(Cl)cc1)C(=O)N2c1ccc(Cl)cc1,H37Rv,,MIC,,BACTEC,,≥12.8 µg/mL
CN(C)c1ccc(/C=C/c2ccnc3c2ccc2ccccc23)cc1,H37Rv,,MIC,,,,>100 µg/mL
O=C(NO)c1cnccn1,H37Rv,,MIC bound,,BACTEC,,>12.5 µg/mL
Cc1ccn2c(C(=O)NCc3ccc(NCCN4CCOCC4)c(F)c3)c(C)nc2c1,H37Rv,,MIC90,,resazurin,,2–10 µM
CC1COc2c(N3CCN(C)CC3)c(F)cc3c(=O)c(C(=O)O)cn1c23,90-0201 (drug-susceptible),,MIC,,,,0.5 µg/mL
C=C(C)/C=C/[C@]12C[C@H](C)[C@H]3CC[C@](C)(N)[C@@H](CC[C@H]1C)[C@@H]32,H37Rv,,inhibition,,,128 µg/mL,100%
Cc1nc2ccc(C(F)(F)F)cn2c1C(=O)NCc1ccc2c(c1)CCO2,H37Rv,,MIC90,,resazurin,,2–10 µM
NNC(=O)c1ccncc1,Clinical isolate 18343,Isoniazid- and moxifloxacin-resistant,MIC,,broth dilution,,>10 µM
COc1ccc(N=C2C(=Nc3ccc(OC)cc3)N(S(=O)(=O)c3ccc(C)cc3)C(=S)N2c2ccccc2)cc1,H37Rv,,inhibition,,BACTEC,12.5 µg/mL,0%
CC1(C)CN=C(c2ccc(N)cc2)O1,H37Rv,,MIC,,,,>100 µg/mL
CC(C)N=c1cc2n(-c3ccc(Cl)cc3)c3ccccc3nc-2cc1Nc1ccc(Cl)cc1,90-0145 (drug-susceptible),,MIC,,,,0.2 µg/mL
Cc1cn2c(C(=O)NCc3ccc(Oc4ccc(C(F)(F)F)cc4)cc3)c(C)nc2s1,H37Rv,,MIC90,,resazurin,,<2 µM
C=C[C@H]1CN2CC[C@H]1C[C@@H]2[C@@H](O)c1ccnc2ccccc12,H37Rv,,MIC,,BACTEC,,≥128 µg/mL
O=C1c2ccccc2C(=O)N1CO,H37Rv,,MIC,,,,>100 µg/mL
CC[CH2][Sn]([F])([F])[CH2]CC.Cc1cnc2c(ccc3c(C)c(C)cnc32)c1C,H37Rv,,inhibition,,BACTEC,12.5 µg/mL,100%
Cc1c(N)c(C)c(F)c(Cc2c(N)c(C)c(N)c(C)c2F)c1N,H37Rv,,MIC,,,,>100 µg/mL
O=C1c2ccccc2-c2nn(C(=O)c3ccccc3)c3cccc1c23,Clinical isolate,,MIC,,resazurin,,8 µg/mL
C=C(Cl)CN(C(C)=O)c1ccccc1,H37Rv,,MIC,,,,>100 µg/mL
CC[C@@H](CO)NCCN[C@@H](CC)CO,90-0240 (drug-susceptible),,MIC,,,,1 µg/mL
O=C1CNC(=O)CN1,H37Rv,,MIC,,,,>100 µg/mL
COc1cc2oc3cc(OC)c(C(C)=O)c(CC=C(C)C)c3c(=O)c2c(O)c1CC=C(C)C,H37Ra,,MIC,,resazurin,,>200 µg/mL
CCOc1c(N=Nc2ccc(Cl)cc2Cl)c(C)nn1C(=S)S,H37Rv,,inhibition,,BACTEC,12.5 µg/mL,97%
CN[C@@H]1[C@H](O[C@H]2[C@H](O[C@H]3[C@H](O)[C@@H](O)[C@H](N=C(N)N)[C@@H](O)[C@@H]3N=C(N)N)O[C@@H](C)[C@]2(O)C=O)O[C@@H](CO)[C@H](O)[C@H]1O,TN718 (AY),,MIC,,,,>2 µg/mL
COc1ccc(C(=O)SSC(=O)c2ccc(OC)c(OC)c2)cc1OC,H37Rv,,MIC,,,,>100 µg/mL
COC(=O)C1=NOC2(CC(=O)N(c3ccc(F)cc3)C2=O)C1,18b,,MIC,,resazurin,,16 µg/mL
CNNC(=O)C(=O)NNC,H37Rv,,inhibition,,BACTEC,12.5 µg/mL,78%
CC(=O)c1c(OCC(N)=O)cc2oc3cc(OCC(N)=O)c(CCC(C)C)c(O)c3c(=O)c2c1CCC(C)C,H37Ra,,MIC,,resazurin,,>200 µg/mL
Cc1c(F)c(N2CCNC(C)C2)cc2c1c(=O)c(C(=O)O)cn2C1CC1,44 isolates (resistant),,MIC50,,,,1 µg/mL
NNC(=O)c1ccncc1,PMH29:kasA/kasB,,MIC,,,,0.125 µg/mL
CC(C)(C)c1cc(COc2c3sc(=S)sc3c(OCc3cc(C(C)(C)C)cc(C(C)(C)C)c3)c3sc(=S)sc23)cc(C(C)(C)C)c1,H37Rv,,inhibition,,BACTEC,12.5 µg/mL,0%
CC(C)c1cc(C(C)C)c(S(=O)(=O)N2CCN(CCO)CC2)c(C(C)C)c1,Clinical isolate,,MIC,,resazurin,,4 µg/mL
CCCCCCCCCCCCNc1cccc2c1C(=O)c1ccccc1C2=O,H37Rv,,MIC,,,,>100 µg/mL
Cc1c2cc[n+](Cc3ccc(I)cc3)cc2c(C)c2c1[nH]c1ccccc12,H37Rv,,MIC bound,,resazurin,,<6.25 µg/mL
CC(C)C(=O)C1C/C(=C/c2ccccn2)C(=O)/C(=C/c2cccnc2)C1,Clinical isolate,,MIC,,resazurin,,4 µg/mL

Conditions beyond the fields shown may differ between rows. Blank or dashed fields: not listed here. A number after MIC or MFC names an inhibition level or a share of isolates. a–b is a range or a potency band. MIC bound: limit read from a one-dose screen. ECn is the concentration giving n% inhibition of infection, replication or growth.